Test results from article PMC8406809 (Antimicrobial Agents and Chemotherapy, 2021).

Test system: original-SARS2
Type: cell-based, SARS-CoV-2

With interferon alpha 2b as the substance, how does the “antiviral effect (virus-positive cells normalized to nontreated controls)” value read?
The value was “concentration-dependent antiviral effect”.
